Measured values from several laboratories, pooled; numbers as filed in NIAID ChemDB.

Shared fields: tests in culture; agent: HIV-1

ECn: concentration that inhibits the pathogen or its effect by n%.

compound	measure	strain	method	mutations	cell line	value
O=C(O)c1cc(CN2CCCNCCNCCCNCC2)ccc1CN1CCCNCCNCCCNCC1	EC50	RF	cytopathic effect / MTT	-	MT-4	>10 µg/mL
C#CC1(CO)O[C@@H](n2c(C)nc3c(N)ncnc32)[C@H](O)[C@@H]1O	EC50	LAI	cytopathic effect / MTT	-	MT-4	>400 µM
COC(=O)[C@H](C)NP(=O)(OC[C@@H]1C=C[C@H](n2cnc3c(N)ncnc32)O1)Oc1ccccc1	EC50	IIIB	syncytia	-	MOLT-4/C8 + MOLT-4	0.03 µM
COC(=O)c1cc(CN2CCCNCCNCCCNCC2)ccc1CN1CCCNCCNCCCNCC1	EC50	AOM	cytopathic effect / MTT	-	MT-4	0.87 µg/mL
CC(C)(C)NC(=O)[C@@H]1C[C@@H]2CCCC[C@@H]2CN1C[C@@H](O)[C@H](Cc1ccccc1)NC(=O)[C@H](CC(N)=O)NC(=O)c1ccc2ccccc2n1	EC90	NL4-3	p24	PR-D30N A71V	MT-4	0.01 µM
Nc1cccc2c1nc(-c1c(F)cccc1F)n2Cc1c(F)cccc1F	EC50	-	cytopathic effect / MTT	RT-L74V	MT-4	0.3 µM
C#C[C@]1(CO)O[C@@H](n2cc(I)c(=O)[nH]c2=O)C[C@@H]1O	EC50	-	β-galactosidase	RT-M184V	HeLa	0.21 µM
Cc1cn([C@H]2C[C@H](N=[N+]=[N-])[C@@H](CO)O2)c(=O)[nH]c1=O	EC50	P022C RT D67N K70R T215F K219Q	plaque count	RT-D67N K70R T215F K219Q	HT4 + HT4-6C	1.4 µM
CCO/N=C(\c1ccc(Br)cc1)C1CCN(C2(C)CCN(C(=O)c3c(C)cc[n+]([O-])c3C)CC2)CC1	EC50	93UG082 R5 CLADE D	p24	-	PBMC	0.00095 µM
CC(C)=CCN1c2cc(Cl)cc3[nH]c(=S)n(c23)C[C@@H]1C	EC95	-	-	RT-K70R Y181C	MT-4	12.5 µM
C#C[C@]1(CO)O[C@@H](n2cc(CC)c(=O)[nH]c2=O)C[C@@H]1O	EC50	LAI	cytopathic effect / MTT	-	MT-4	>400 µM
Cc1cn([C@@H]2O[C@H](CO[Si](C)(C)C(C)(C)C)C3(OS(=O)(=O)C=C3N)[C@H]2O[Si](C)(C)C(C)(C)C)c(=O)n(C)c1=O	EC50	TSAO(RT-E138K)	syncytia	RT-E138K	CEM	>75 µM
O=[N+]([O-])c1cc(CN2CCCNCCNCCCNCC2)cc(CN2CCCNCCNCCCNCC2)c1	EC50	AOM	cytopathic effect / MTT	-	MT-4	0.65 µg/mL
CC(=O)SCCOP(=O)(OCCSC(C)=O)OC[C@@H]1CC[C@H](n2cnc3c(=O)[nH]cnc32)O1	EC50	LAI	RT activity	-	CEM + CEM-SS	1.2 µM
CC(C)=CCN1Cc2cccc3[nH]c(=S)n(c23)C[C@@H]1C	EC50	LAI	cytopathic effect / MTT	-	MT-2	0.06 µM
c1ccc2c(CN3CCCNCCNCCCNCC3)cc(CN3CCCNCCNCCCNCC3)cc2c1	EC50	RF	cytopathic effect / MTT	-	MT-4	0.36 µg/mL
Fc1cccc(F)c1Cn1c(-c2c(F)cccc2F)nc2c(Br)cccc21	EC50	-	cytopathic effect / MTT	RT-Y181C	MT-4	8.4 µM
c1ccc(-c2cc(CN3CCCNCCNCCCNCC3)cc(CN3CCCNCCNCCCNCC3)c2)cc1	EC50	AOM	cytopathic effect / MTT	-	MT-4	0.08 µg/mL
Nc1ncnc2c1ncn2[C@H]1CC[C@@H](CO)O1	EC50	IIIB	syncytia	-	MOLT-4/C8 + MOLT-4	4 µM
c1cc(CN2CCCNCCCNCCNCCC2)cc(CN2CCCNCCCNCCNCCC2)c1	EC50	NL4-3	cytopathic effect / MTT	-	MT-4	0.2 µg/mL
CC(=O)N1CCC(C(=O)N(CCCN2CCC(Cc3ccc(C(N)=O)cc3)CC2)c2ccc(C)c(Cl)c2)CC1	EC50	R5 subtype B_5 recombinant	luciferase	-	U87 (CD4+ CCR5+) + U87	0.012 µM
CC1(C)C2=CC(=O)C(O)(c3ccccc3)C(=O)N2c2ccc(Cl)cc21	EC50	CCS	p24	-	PBMC/1(CCS) + PBMC	0.07 µM
C1CNCCNCCCN(CCCN2CCCNCCNCCCNCC2)CCNC1	EC50	NL4-3	cytopathic effect / MTT	-	MT-4	0.35 µg/mL
CC(C)(C)C(=O)SCCOP(=O)(OCCSC(=O)C(C)(C)C)OC[C@@H]1CC[C@H](n2cnc3c(N)ncnc32)O1	EC50	LAI	RT activity	-	CEM + CEM TK-	0.0001 µM
Nc1ccn([C@H]2C[C@H](O)[C@](CO)(CF)O2)c(=O)n1	EC50	HXB2	β-galactosidase	-	HeLa	0.0046 µM
O=C1CN=C(c2ccc[nH]2)c2cc(Cl)ccc2N1	EC50	IIIB	cytopathic effect / MTT	-	CEM	0.25 µg/mL
CN(C)c1cccc2c1nc(-c1c(F)cccc1F)n2Cc1c(F)cccc1F	EC50	-	cytopathic effect / MTT	RT-M184I	MT-4	0.16 µM
O=C(O)P(=O)(O)O	EC50	LAI viral clone (RT-E89G)	cytopathic effect / MTT	RT-E89G	MT-2	399 µM
C#C[C@]1(CO)O[C@@H](n2cnc3c(N)ncnc32)C[C@@H]1O	EC50	-	β-galactosidase	RT-K65R	HeLa	0.033 µM
CC(=O)Nc1cccc2c1nc(-c1c(F)cccc1F)n2Cc1c(F)cccc1F	EC50	-	cytopathic effect / MTT	RT-V106A	MT-4	>20 µM
CC(=O)SCCOP(=O)(OCCSC(C)=O)OC[C@@H]1CC[C@H](n2cc(C)c(=O)[nH]c2=O)O1	EC50	LAI	RT activity	-	CEM + CEM-SS	1.7 µM
CC(=O)c1ccc(C)cc1NC(C(N)=O)c1c(Cl)cccc1Cl	EC50	IIIB	MTT	RT-V108I	MAGI	1.4 µM
Cc1cn([C@H]2C[C@H](N=[N+]=[N-])[C@@H](CO)O2)c(=O)[nH]c1=O	EC50	-	cytopathic effect / MTT	-	CEM + CEM TK-	>100 µM
Cc1ccc(-c2ccc3c(c2)C=C(C(=O)Nc2ccc(C[N+](C)(C)C4CCOCC4)cc2)CCC3)cc1	EC50	BaL	p24	-	PBMC	0.0055 µM
CC(C)=CCN1Cc2cc(Cl)cc3[nH]c(=S)n(c23)C[C@@H]1C	EC50	Quin-0.02(RT-V106A)	syncytia	RT-V106A	CEM	1.6 µM
C#CC1(CO)O[C@@H](n2cc(/C=C/Br)c(=O)[nH]c2=O)C[C@@H]1O	EC50	LAI	cytopathic effect / MTT	-	MT-4	>15 µM
C#C[C@]1(CO)O[C@@H](n2cnc3c(N)nc(F)nc32)C[C@@H]1O	EC50	Clinical isolate	fluorescence	L741I	MT4-GFP	0.00097 µM
C=C(C)OC(=O)N1c2cc(Cl)ccc2NC(=S)C1(C)C	EC50	Pyr(RT-Y181C)	syncytia	RT-Y181C	CEM	0.145 µM
CC(=O)SCCOP(=O)(OCCSC(C)=O)OC[C@@H]1CC[C@H](n2cnc3c(N)ncnc32)O1	EC50	LAI	RT activity	-	CEM + CEM TK-	0.00077 µM
Fc1c(F)c(CN2CCCNCCNCCCNCC2)c(F)c(F)c1CN1CCCNCCNCCCNCC1	EC50	AOM	cytopathic effect / MTT	-	MT-4	0.067 µg/mL
Cc1cn([C@H]2C=C[C@@H](COP(=O)(SCCOC(=O)C(C)(C)C)SCCOC(=O)C(C)(C)C)O2)c(=O)[nH]c1=O	EC50	LAI	RT activity	-	CEM + CEM-SS	0.0059 µM
CC1(C)C2=CC(=O)C(c3ccccc3)([N+](=O)[O-])C(=O)N2c2ccc(Cl)cc21	EC50	RF	cytopathic effect / MTT	-	MT-4	7.2 µM
Cc1cc(S(N)(=O)=O)ccc1NC(=O)COc1ccc(Cl)cc1C(=O)c1cc(Cl)cc(C#N)c1	EC50	NRTI resistant (RT A62V V75I F77L Q151M) MDR151	β-galactosidase	RT-A62V V75I F77L Q151M	MAGI	0.002 µM
CCc1cc(NCc2nc3c(Cl)ccc(Cl)c3o2)c(=O)[nH]c1C	EC50	TIBO-2(RT-K103N)	syncytia	RT-K103N	CEM	1.4 µM

6 of the rows above, restated:

compound | measure | strain | method | mutations | cell line | value
CCO/N=C(\c1ccc(Br)cc1)C1CCN(C2(C)CCN(C(=O)c3c(C)cc[n+]([O-])c3C)CC2)CC1 | EC50 | 93UG082 R5 CLADE D | p24 | - | PBMC | 0.00095 µM
CC(=O)N1CCC(C(=O)N(CCCN2CCC(Cc3ccc(C(N)=O)cc3)CC2)c2ccc(C)c(Cl)c2)CC1 | EC50 | R5 subtype B_5 recombinant | luciferase | - | U87 (CD4+ CCR5+) + U87 | 0.012 µM
Nc1ccn([C@H]2C[C@H](O)[C@](CO)(CF)O2)c(=O)n1 | EC50 | HXB2 | β-galactosidase | - | HeLa | 0.0046 µM
CC(C)(C)NC(=O)[C@@H]1C[C@@H]2CCCC[C@@H]2CN1C[C@@H](O)[C@H](Cc1ccccc1)NC(=O)[C@H](CC(N)=O)NC(=O)c1ccc2ccccc2n1 | EC90 | NL4-3 | p24 | PR-D30N A71V | MT-4 | 0.01 µM
Cc1cn([C@H]2C=C[C@@H](COP(=O)(SCCOC(=O)C(C)(C)C)SCCOC(=O)C(C)(C)C)O2)c(=O)[nH]c1=O | EC50 | LAI | RT activity | - | CEM + CEM-SS | 0.0059 µM
C1CNCCNCCCN(CCCN2CCCNCCNCCCNCC2)CCNC1 | EC50 | NL4-3 | cytopathic effect / MTT | - | MT-4 | 0.35 µg/mL

An empty or dashed field is not shown. Rows are shuffled and stem from different studies.